A weaker result is weaker than the reference pair of the same experiment. Where a protein sequence is shown, tags need not be part of it.
Molecular target: T1, PaSSB (Pseudomonas aeruginosa PAO1) (UniProt P40947)
T1 sequence (looked up): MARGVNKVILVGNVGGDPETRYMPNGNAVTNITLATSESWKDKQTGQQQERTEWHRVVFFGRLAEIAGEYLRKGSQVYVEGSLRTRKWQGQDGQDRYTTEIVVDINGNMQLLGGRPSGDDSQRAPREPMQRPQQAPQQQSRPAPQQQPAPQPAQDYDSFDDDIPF
Experiment: EMSA
Details: no stable complex (ND), smears indicate interaction, up to 5000 nM; 20 mM Tris-HCl pH 8.0, 100 mM NaCl, 25°C 30 min, 1.7 nM DNA, protein 0-5000 nM; native 8% PAGE in TBE at 4°C; recombinant protein; residues 1-165; label: 5' 32P; single-stranded DNA

TTTTTTTTTTTTTTTTTTTT [dT20]: binds more weakly.
